Common to all, as to format: cell-based
In experiment [1] the test system is HIV-1 NL4-3N126K pseudovirus. The note with it: for IC50: NL4-3N126K (subtype B, CXCR4-tropic) pseudovirus, 100 TCID50, TZM-bl cells 48 h, luciferase, mean ± SD, three independent experiments; for FC (fold change in the IC50 relative to the WT level): NL4-3N126K vs NL4-3WT.
For experiment [2], the system named is HIV-1 AC10.29N126K pseudovirus. The note with it: for IC50: AC10.29N126K (subtype B, CCR5-tropic) pseudovirus, 100 TCID50, TZM-bl cells 48 h, luciferase, mean ± SD, three independent experiments; for FC (fold change in the IC50 relative to the WT level): AC10.29N126K vs AC10.29WT.
Experiment [3] relates to HIV-1 QH0692N126K pseudovirus. The note with it: for IC50: QH0692N126K (subtype B, CCR5-tropic) pseudovirus, 100 TCID50, TZM-bl cells 48 h, luciferase, mean ± SD, three independent experiments; for FC (fold change in the IC50 relative to the WT level): QH0692N126K vs QH0692WT.
Experiment [4] relates to HIV-1 92RW020N126K pseudovirus. The settings on record: for IC50: 92RW020N126K (subtype A, CCR5-tropic) pseudovirus, 100 TCID50, TZM-bl cells 48 h, luciferase, mean ± SD, three independent experiments; for FC (fold change in the IC50 relative to the WT level): 92RW020N126K vs 92RW020WT.
Experiment [5] concerns HIV-1 REJO4541N126K pseudovirus. The settings on record: for IC50: REJO4541N126K (subtype B, CCR5-tropic) pseudovirus, 100 TCID50, TZM-bl cells 48 h, luciferase, mean ± SD, three independent experiments; for FC (fold change in the IC50 relative to the WT level): REJO4541N126K vs REJO4541WT.
The test system of experiment [6] is HIV-1 JRFLN126K pseudovirus. The note with it: for IC50: JRFLN126K (subtype B, CCR5-tropic) pseudovirus, 100 TCID50, TZM-bl cells 48 h, luciferase, mean ± SD, three independent experiments; for FC (fold change in the IC50 relative to the WT level): JRFLN126K vs JRFLWT.
For experiment [7], the system named is HIV-1 ZM53M.PB12N126K pseudovirus. The note with it: for IC50: ZM53M.PB12N126K (subtype C, CCR5-tropic) pseudovirus, 100 TCID50, TZM-bl cells 48 h, luciferase, mean ± SD, three independent experiments; for FC (fold change in the IC50 relative to the WT level): ZM53M.PB12N126K vs ZM53M.PB12WT.
Experiment [8] relates to HIV-1 ZM109F.PB4N126K pseudovirus. The note with it: for IC50: ZM109F.PB4N126K (subtype C, CCR5-tropic) pseudovirus, 100 TCID50, TZM-bl cells 48 h, luciferase, mean ± SD, three independent experiments; for FC (fold change in the IC50 relative to the WT level): ZM109F.PB4N126K vs ZM109F.PB4WT.

For orientation: IC50 means the concentration that inhibits the measured activity by half. Low values mean greater potency in that assay, high ones weaker potency in that assay. Take `CC[C@H](C)[C@H](NC(=O)[C@H](CCC(=O)O)NC(=O)[C@H](CCC(=O)O)NC(=O)[C@@H](NC(=O)[C@H](CCCCN)NC(=O)[C@H](CCCCN)NC(=O)[C@@H](NC(=O)[C@H](Cc1ccc(O)cc1)NC(=O)[C@H](CCC(=O)O)NC(=O)[C@H](CCC(=O)O)NC(=O)[C@@H](NC(=O)[C@H](CCCCN)NC(=O)[C@H](CCCCN)NC(=O)[C@H](CCC(=O)O)NC(=O)[C@H](Cc1c[nH]c2ccccc12)NC(=O)[C@H](CCC(=O)O)NC(=O)[C@H](CCC(=O)O)NC(=O)[C@H](Cc1c[nH]c2ccccc12)NC(=O)[C@@H](NC(=O)[C@H](CCSC)NC(=O)[C@H](CCC(=O)O)NC(C)=O)[C@@H](C)O)[C@@H](C)CC)[C@@H](C)O)[C@@H](C)CC)C(=O)N[C@@H](CC(C)C)C(=O)N[C@@H](CCCCN)C(N)=O` [HP23]: the IC50 was determined as 1.5 ± 0.2 nM in experiment [1]; 1.2 nM in experiment [2]; 41.9 ± 3 nM in experiment [3]; 3.3 ± 1 nM in experiment [4]; 5.7 ± 2 nM in experiment [5]; 15.3 ± 0.2 nM in experiment [6]. Also, the values for the IC50 in experiment [7] and in experiment [8] were 1.6 ± 0.3 nM and 1.4 ± 0.3 nM, respectively. Further, the “FC (fold change in the IC50 relative to the WT level)” value in experiment [1] worked out at 2.6; in experiment [2], 1.6; in experiment [3], 1.2; in experiment [4], 1.5; in experiment [5], 1.8; in experiment [6], 2.6. The “FC (fold change in the IC50 relative to the WT level)” value in experiment [7] is recorded as 1.3; in experiment [8], 1.8.

With `CC[C@H](C)[C@H](NC(=O)[C@H](CC(C)C)NC(=O)[C@H](CCC(=O)O)NC(=O)[C@H](CCC(=O)O)NC(=O)[C@@H](NC(=O)[C@H](CCCCN)NC(=O)[C@H](CCCCN)NC(=O)[C@@H](NC(=O)[C@H](Cc1ccc(O)cc1)NC(=O)[C@H](CCC(=O)O)NC(=O)[C@H](CCC(=O)O)NC(=O)[C@@H](NC(=O)[C@H](CCCCN)NC(=O)[C@H](CCCCN)NC(=O)[C@H](CC(=O)O)NC(=O)[C@H](Cc1c[nH]c2ccccc12)NC(=O)[C@H](CCC(=O)O)NC(=O)[C@H](CCC(=O)O)NC(=O)[C@H](Cc1c[nH]c2ccccc12)NC(=O)[C@@H](NC(=O)[C@H](CCSC)NC(C)=O)[C@@H](C)O)[C@@H](C)CC)[C@@H](C)O)[C@@H](C)CC)C(=O)N[C@@H](CCCCN)C(=O)N[C@@H](CCCCN)C(=O)N[C@@H](CO)C(N)=O` [MTSC22EK], the IC50 in experiment [1] is 4.9 ± 1.6 nM; in experiment [2] it was 4.1 ± 1.6 nM; in experiment [3], 92.2 ± 22.4 nM; in experiment [4], 14.3 ± 6.8 nM; in experiment [5], 13.2 ± 3.8 nM; in experiment [7] it was 3.2 ± 0.7 nM. Further, half-maximal inhibition in experiment [8] (IC50) was put at 3.3 ± 0.4 nM.

Regarding `CC[C@H](C)[C@H](NC(=O)[C@H](CC(C)C)NC(=O)[C@H](CCC(=O)O)NC(=O)[C@H](CCC(=O)O)NC(=O)[C@@H](NC(=O)[C@H](CCCCN)NC(=O)[C@H](CCCCN)NC(=O)[C@@H](NC(=O)[C@H](Cc1ccc(O)cc1)NC(=O)[C@H](CCC(=O)O)NC(=O)[C@H](CCC(=O)O)NC(=O)[C@@H](NC(=O)[C@H](CCCCN)NC(=O)[C@H](CCCCN)NC(=O)[C@H](CC(=O)O)NC(=O)[C@H](Cc1c[nH]c2ccccc12)NC(=O)[C@H](CCC(=O)O)NC(=O)[C@H](CCC(=O)O)NC(=O)[C@H](Cc1c[nH]c2ccccc12)NC(C)=O)[C@@H](C)CC)[C@@H](C)O)[C@@H](C)CC)C(=O)N[C@@H](CCCCN)C(=O)N[C@@H](CCCCN)C(=O)N[C@@H](CO)C(N)=O` [SC22EK], the IC50 amounted to 86.5 ± 1.8 nM in experiment [1]; 248 ± 38.7 nM in experiment [2]; 1160 ± 203 nM in experiment [3]; 1330 ± 766 nM in experiment [4]; 1280 ± 78.2 nM in experiment [5]; 600 ± 93.3 nM in experiment [6]. Besides, the IC50 in experiment [7] came out at 164 ± 18.7 nM; in experiment [8], 79.4 ± 6.9 nM. Also, the “FC (fold change in the IC50 relative to the WT level)” value in experiment [1] was 1.8; in experiment [2], 2.2; in experiment [3] it was 0.6; in experiment [4], 3.1; in experiment [5], 3.4; in experiment [6], 1.3. The “FC (fold change in the IC50 relative to the WT level)” value in experiment [7] amounted to 3.5; in experiment [8], 1.8.

As to `CC[C@H](C)[C@H](NC(=O)[C@H](CCC(=O)O)NC(=O)[C@H](CCCNC(=N)N)NC(=O)[C@H](CCC(=O)O)NC(=O)[C@H](Cc1c[nH]c2ccccc12)NC(=O)[C@@H](NC(=O)[C@H](CCC(=O)O)NC(=O)[C@H](Cc1c[nH]c2ccccc12)NC(=O)[C@H](CO)NC(C)=O)[C@@H](C)O)C(=O)N[C@@H](CCC(=O)O)C(=O)N[C@@H](CC(N)=O)C(=O)N[C@@H](Cc1ccc(O)cc1)C(=O)N[C@H](C(=O)N[C@@H](CCCNC(=N)N)C(=O)N[C@@H](CCC(N)=O)C(=O)N[C@H](C(=O)N[C@@H](Cc1ccc(O)cc1)C(=O)N[C@@H](CCCNC(=N)N)C(=O)N[C@H](C(=O)N[C@@H](CC(C)C)C(=O)N[C@@H](CCC(=O)O)C(=O)N[C@@H](CCC(=O)O)C(=O)N[C@@H](CO)C(=O)N[C@@H](CCC(N)=O)C(=O)N[C@@H](CCC(=O)O)C(=O)N[C@@H](CCC(N)=O)C(=O)N[C@@H](CCC(N)=O)C(=O)N[C@@H](CC(=O)O)C(=O)N[C@@H](CCCNC(=N)N)C(=O)N[C@@H](CC(N)=O)C(=O)N[C@@H](CCC(=O)O)C(=O)N[C@@H](CCCNC(=N)N)C(=O)N[C@@H](CC(=O)O)C(=O)N[C@@H](CC(C)C)C(=O)N[C@@H](CC(C)C)C(=O)N[C@@H](CCC(=O)O)C(N)=O)[C@@H](C)CC)[C@@H](C)CC)[C@@H](C)O` [SFT, sifuvirtide], the IC50 was found to be 5.1 ± 1 nM in experiment [1]; 2.5 ± 0.9 nM in experiment [2]; 62.5 ± 7.7 nM in experiment [3]; 10.9 ± 1.3 nM in experiment [4]; 10.5 ± 1.9 nM in experiment [5]; 31.3 ± 12.9 nM in experiment [6]. In addition, the IC50 in experiment [7] is 2.8 ± 0.9 nM; in experiment [8], 4.5 ± 0.4 nM. The “FC (fold change in the IC50 relative to the WT level)” value in experiment [1] was 2.7; in experiment [2], 1.2; in experiment [3] it was 2.2; in experiment [4] it was 1.5; in experiment [5] it was 1.7; in experiment [6] it was 3.5. Moreover, the entries for the “FC (fold change in the IC50 relative to the WT level)” value in experiment [7] and in experiment [8] were 1.3 and 1.7, respectively.

(Values after PMC7150849 (Viruses, 2020).)
